Measured values from publication PMC9743467 (Matter, 2022).

System: SARS-CoV-2 PsV
Format: cell-based
Details: n = 3

## ACE2: recombinant human angiotensin-converting enzyme 2, soluble, R&D Systems
  inhibition of SARS-CoV-2 PsV infection: ~66%
